Test system: HIV-1RF
Experiment: XTT cytoprotection assay (antiviral activity)
Type: cell-based
From the text: One exemplary means to determine antiviral activity is with CEM-SS cells and virus (e.g., HIV-1RF) (MOI=0.01) using the XTT (2,3-bis[2-methoxy-4-nitro-5-sulfophenyl]-5-[(phenylamino)carbonyl]-2H-tetrazolium hydroxide) cytoprotection assay, as described by Rice (1993) PNAS 90:9721-9724, and Rice (1997) Antimicrob. Agents Chemother. 41:419-426. Briefly, cells are infected with HIV-1 RF (or other virus to be tested) in the presence of various dilutions of test compounds (thiolesters and controls). The cultures are incubated for seven days. During this time control cultures without protective compounds (i.e., compounds with anti-viral activity) replicate virus, induce syncytia, and result in about 90% cell death. The cell death is measured by XTT dye reduction. XTT is a soluble tetrazolium dye that measures mitochondrial energy output, similar to MTT. Positive controls using dextran sulfate (an attachment inhibitor) or 3′-Azido-2′-3′-dideoxythymidine, AZT (a reverse transcriptase inhibitor) are added to each assay. Individual assays are done in duplicate using a sister plate method.
Effective antiviral concentrations providing 50% cytoprotection (EC50), and cellular growth inhibitory concentrations causing 50% cytotoxicity (IC50) are calculated.

[1] = Table 1, in vitro therapeutic index (IC50/EC50)

CC(=O)NS(=O)(=O)c1ccc(NC(=O)c2ccccc2SSc2ccccc2C(=O)Nc2ccc(S(=O)(=O)NC(C)=O)cc2)cc1 [Compound 2 D, N,N′-(2,2′-dithiodibenzoyl)-bis-sulfacetamide]
TI [1]: > 133

CC(=O)NS(=O)(=O)c1ccc(NC(=O)c2cccc(NC(=O)CCCl)c2)cc1 [Compound 38]
TI (Table 5, IC50/EC50): 2.8

CC(=O)NS(=O)(=O)c1ccc(NC(=O)c2ccccc2SC(=O)CCCC[n+]2ccccc2)cc1 [Compound 45, N-[2-(5-pyridinio-valeroylthio)benzoyl]sulfacetamide bromide]
TI (Table 5, IC50/EC50): >51 | TI (Table 6, IC50/EC50): >51 | TI (Table 10, IC50/EC50): >51

CC(=O)NS(=O)(=O)c1ccc(NC(=O)c2ccccc2SC(=O)CCCCBr)cc1 [Compound 44, N-[2-(5-bromovaleroylthio)benzoyl]sulfacetamide]
TI (Table 5, IC50/EC50): 49.2 | TI (Table 6, IC50/EC50): 49.2

NS(=O)(=O)c1ccc(Cn2sc3ccccc3c2=O)cc1 [Compound 23 BITA]
TI (Table 2, IC50/EC50): 3.9

Cc1cc(NS(=O)(=O)c2ccc(-n3sc4ccccc4c3=O)cc2)nc(C)n1 [Compound 19 BITA]
TI [1]: 6.1

O=C(Nc1ccc(S(=O)(=O)Nc2ncccn2)cc1)c1ccccc1SSc1ccccc1C(=O)Nc1ccc(S(=O)(=O)Nc2ncccn2)cc1 [Compound 5 D]
TI [1]: 23.2

O=C(Nc1ccc(S(=O)(=O)c2ccc(NS(=O)(=O)Cc3ccccc3[N+](=O)[O-])cc2)cc1)c1ccccc1SSc1ccccc1C(=O)Nc1ccc(S(=O)(=O)c2ccc(NS(=O)(=O)Cc3ccccc3[N+](=O)[O-])cc2)cc1 [Compound 34 D]
TI (Table 3, IC50/EC50): > 25.7

O=c1c2ccccc2sn1-c1ccc(S(=O)(=O)Nc2cnc3ccccc3n2)cc1 [Compound 17 BITA]
TI [1]: 5.9

COc1ccc(C(=O)Sc2ccccc2C(=O)Nc2ccc(S(=O)(=O)NC(C)=O)cc2)cc1 [Compound 42]
TI (Table 5, IC50/EC50): 15.6

NS(=O)(=O)c1ccc(NC(=O)CNC(=O)c2ccccc2SSc2ccccc2C(=O)NCC(=O)Nc2ccc(S(N)(=O)=O)cc2)cc1 [Compound 25 D, N,N′-(2,2′-dithiodibenzoyl)-bis-4-(glycinamido)benzenesulfonamide]
TI (Table 2, IC50/EC50): 11

O=C(CCCC[n+]1ccccc1)Sc1ccccc1C(=O)Nc1ccc(S(=O)(=O)c2ccc([N+](=O)[O-])cc2)cc1 [Compound 47]
TI (Table 6, IC50/EC50): >57

O=C(Nc1ccc(S(=O)(=O)Nc2cnc3ccccc3n2)cc1)c1ccccc1SSc1ccccc1C(=O)Nc1ccc(S(=O)(=O)Nc2cnc3ccccc3n2)cc1 [Compound 17 D]
TI [1]: 30.8

CC(=O)Nc1cccc(S(=O)(=O)c2cccc(NC(=O)c3ccccc3SSc3ccccc3C(=O)Nc3cccc(S(=O)(=O)c4cccc(NC(C)=O)c4)c3)c2)c1 [Compound 36]
TI (Table 4, IC50/EC50): 95

NS(=O)(=O)c1ccc(NS(=O)(=O)c2ccc(NC(=O)c3ccccc3SSc3ccccc3C(=O)Nc3ccc(S(=O)(=O)Nc4ccc(S(N)(=O)=O)cc4)cc3)cc2)cc1 [Compound 22 D]
TI [1]: 18.7

NS(=O)(=O)c1ccc(CNC(=O)c2ccccc2SSc2ccccc2C(=O)NCc2ccc(S(N)(=O)=O)cc2)cc1 [Compound 23 D, N,N′-(2,2′-dithiodibenzoyl)-bis-4-(aminomethyl)benzene-sulfonanide]
TI (Table 2, IC50/EC50): 58.8

O=c1c2ccccc2sn1-c1ccc(S(=O)(=O)Nc2ncccn2)cc1 [Compound 5 BITA]
TI [1]: 7.8

CC(=O)Nc1ccc(S(=O)(=O)c2ccc(NC(=O)c3ccccc3SSc3ccccc3C(=O)Nc3ccc(S(=O)(=O)c4ccc(NC(C)=O)cc4)cc3)cc2)cc1 [Compound 27 D]
TI (Table 3, IC50/EC50): 106.7

Cc1noc(NS(=O)(=O)c2ccc(NC(=O)c3ccccc3SSc3ccccc3C(=O)Nc3ccc(S(=O)(=O)Nc4onc(C)c4C)cc3)cc2)c1C [Compound 20 D]
TI [1]: 17.7

CC(=O)NS(=O)(=O)c1ccc(NC(=O)c2ccccc2SC(=O)c2ccccc2)cc1 [Compound 41]
TI (Table 5, IC50/EC50): 16.6

Cc1noc(NS(=O)(=O)c2ccc(-n3sc4ccccc4c3=O)cc2)c1C [Compound 20 BITA]
TI [1]: 3.0

Cc1cc(C)nc(NS(=O)(=O)c2ccc(-n3sc4ccccc4c3=O)cc2)n1 [Compound 9 BITA]
TI [1]: 2.5

COc1ccnc(NS(=O)(=O)c2ccc(-n3sc4ccccc4c3=O)cc2)n1 [Compound 7 BITA]
TI [1]: 6.5

CC(=O)Nc1ccc(S(=O)(=O)Nc2ccc(S(=O)(=O)c3ccc(-n4sc5ccccc5c4=O)cc3)cc2)cc1 [Compound 28 BITA]
TI (Table 3, IC50/EC50): 19.6

COc1ccc(NS(=O)(=O)c2ccc(-n3sc4ccccc4c3=O)cc2)nn1 [Compound 12 BITA]
TI [1]: 2.4

COc1cnc(NS(=O)(=O)c2ccc(NC(=O)c3ccccc3SSc3ccccc3C(=O)Nc3ccc(S(=O)(=O)Nc4ncc(OC)cn4)cc3)cc2)nc1 [Compound 8 D]
TI [1]: 26.2

O=c1c2ccccc2sn1-c1ccc(S(=O)(=O)Nc2ccc(Cl)nn2)cc1 [Compound 4 BITA]
TI [1]: 2.7

COc1cc(NS(=O)(=O)c2ccc(NC(=O)c3ccccc3SSc3ccccc3C(=O)Nc3ccc(S(=O)(=O)Nc4cc(OC)nc(OC)n4)cc3)cc2)nc(OC)n1 [Compound 6 D]
TI [1]: 25

CC(=O)NS(=O)(=O)c1ccc(NC(=O)c2ccccc2SC(=O)CCC[n+]2ccccc2)cc1 [Compound 54]
TI (Table 10, IC50/EC50): 17.3

NC(N)=NS(=O)(=O)c1ccc(NC(=O)c2ccccc2SSc2ccccc2C(=O)Nc2ccc(S(=O)(=O)N=C(N)N)cc2)cc1 [Compound 21 D]
TI [1]: >2.8

CC(=O)NS(=O)(=O)c1ccc(NC(=O)c2ccccc2SC(C)=O)cc1 [Compound 40]
TI (Table 5, IC50/EC50): 20.3

NS(=O)(=O)c1ccc(NS(=O)(=O)c2ccc(-n3sc4ccccc4c3=O)cc2)cc1 [Compound 22 BITA]
TI [1]: 2.9

COc1cc(NS(=O)(=O)c2ccc(-n3sc4ccccc4c3=O)cc2)nc(OC)n1 [Compound 6 BITA]
TI [1]: 7.4

CC(=O)NS(=O)(=O)c1ccc(NC(=O)c2ccccc2SC(=O)CCCCC[n+]2ccccc2)cc1 [Compound 55]
TI (Table 10, IC50/EC50): 6.5

O=C(Nc1ccc(S(=O)(=O)c2ccc(NC(=O)c3ccccc3SSc3ccccc3C(=O)Nc3ccc(S(=O)(=O)c4ccc(NC(=O)c5ccc([N+](=O)[O-])cc5)cc4)cc3)cc2)cc1)c1ccc([N+](=O)[O-])cc1 [Compound 32 D]
TI (Table 3, IC50/EC50): >4

CC(=O)NS(=O)(=O)c1ccc(-n2sc3ccccc3c2=O)cc1 [Compound 2 BITA, N-[4-(3-oxo-3H-benz[d]isothiazol-2-yl)phenylsulfonyl] acetamide]
TI [1]: 2.7

COc1ccnc(NS(=O)(=O)c2ccc(NC(=O)c3ccccc3SSc3ccccc3C(=O)Nc3ccc(S(=O)(=O)Nc4nccc(OC)n4)cc3)cc2)n1 [Compound 7 D]
TI [1]: 13.5

O=C(CCCCBr)Sc1ccccc1C(=O)Nc1ccc(S(=O)(=O)c2ccc([N+](=O)[O-])cc2)cc1 [Compound 46]
TI (Table 6, IC50/EC50): 13.6

Cc1cc(C)nc(NS(=O)(=O)c2ccc(NC(=O)c3ccccc3SSc3ccccc3C(=O)Nc3ccc(S(=O)(=O)Nc4nc(C)cc(C)n4)cc3)cc2)n1 [Compound 9 D]
TI [1]: 20.1

O=c1c2ccccc2sn1-c1ccc(S(=O)(=O)c2ccc(NS(=O)(=O)Cc3ccccc3[N+](=O)[O-])cc2)cc1 [Compound 34 BITA]
TI (Table 3, IC50/EC50): 15.1

Nc1cccc(S(=O)(=O)c2cccc(NC(=O)c3ccccc3SSc3ccccc3C(=O)Nc3cccc(S(=O)(=O)c4cccc(N)c4)c3)c2)c1 [Compound 35]
TI (Table 4, IC50/EC50): 81.5

COc1cnc(NS(=O)(=O)c2ccc(-n3sc4ccccc4c3=O)cc2)nc1 [Compound 8 BITA]
TI [1]: 3.3
